{"source": "PubChem BioAssay AID504761 (Drosophila RNAi Screening Center, 2011)", "screen": "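Genome-wide fly cell screen for genes dengue virus requires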 (primary screen)", "cells": "D.Mel-2 cells from Drosophila", "reagent": "long dsRNA against Drosophila genes", "challenge": "infection with dengue virus type 2; dose and infection time not stated", "detection": "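Per well on two replicate plates, imaging gave the percent of cells positive for viral envelope protein, ranked by infection, and a nuclear count of cells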", "reading the numbers": "infection score: higher = more virus-infected cells; cell count: higher = more cells in the well", "call rule": "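Low infection ranks in the two replicates (chance level up to 0.065) followed by a retest with a 1.5-fold or larger significant decrease, p below 0.05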", "calls": "active = confirmed: knock-down lowers infection; inactive = not picked or not confirmed", "note": "The screen tested about 22,000 reagents; this is an unselected part of those that have a named target and a result. Of all reagents, 116 (0.52%) are marked active. 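Calls depend on retest data that are not deposited; infection was ranked per plate without normalising between plates; the unit of the infection score is not given.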 Raw values are not corrected between plates. Not all columns of the deposit are shown. Not given: the amount of reagent, the time to read-out."}
{"Target gene":"bnk","DRSC id":"DRSC16912","infection score, replicate 1":12.2,"cell count, replicate 1":1853,"Outcome":"inactive"}
{"Target gene":"bnk","DRSC id":"DRSC29887","infection score, replicate 1":14.9,"cell count, replicate 1":6163,"Outcome":"inactive"}
{"Target gene":"CG31406","DRSC id":"DRSC12777","infection score, replicate 1":0.66,"cell count, replicate 1":6243,"Outcome":"inactive"}
{"Target gene":"CG31406","DRSC id":"DRSC26169","infection score, replicate 1":13.7,"cell count, replicate 1":3655,"Outcome":"inactive"}
{"Target gene":"CG5958","DRSC id":"DRSC02915","infection score, replicate 1":1.19,"cell count, replicate 1":6282,"Outcome":"inactive"}
{"Target gene":"mib2","DRSC id":"DRSC02623","infection score, replicate 1":10.6,"cell count, replicate 1":6368,"Outcome":"inactive"}
{"Target gene":"CG5079","DRSC id":"DRSC23061","infection score, replicate 1":2.41,"cell count, replicate 1":6101,"Outcome":"inactive"}
{"Target gene":"CG31606","DRSC id":"DRSC01012","infection score, replicate 1":0.69,"cell count, replicate 1":6270,"Outcome":"inactive"}
{"Target gene":"Sting","DRSC id":"DRSC06615","infection score, replicate 1":14.4,"cell count, replicate 1":6504,"Outcome":"inactive"}
{"Target gene":"Sting","DRSC id":"DRSC29477","infection score, replicate 1":28.7,"cell count, replicate 1":4703,"Outcome":"inactive"}
{"Target gene":"Tmtc4","DRSC id":"DRSC15702","infection score, replicate 1":0.81,"cell count, replicate 1":6565,"Outcome":"inactive"}
{"Target gene":"Pgant9","DRSC id":"DRSC05621","infection score, replicate 1":0.96,"cell count, replicate 1":6789,"Outcome":"inactive"}
{"Target gene":"Pgant9","DRSC id":"DRSC06584","infection score, replicate 1":6.67,"cell count, replicate 1":1845,"Outcome":"inactive"}
{"Target gene":"Pgant9","DRSC id":"DRSC07185","infection score, replicate 1":7.07,"cell count, replicate 1":6594,"Outcome":"inactive"}
{"Target gene":"Pgant9","DRSC id":"DRSC07186","infection score, replicate 1":15.2,"cell count, replicate 1":6322,"Outcome":"inactive"}
{"Target gene":"Pgant9","DRSC id":"DRSC07187","infection score, replicate 1":25.7,"cell count, replicate 1":6015,"Outcome":"inactive"}
{"Target gene":"Pgant9","DRSC id":"DRSC07189","infection score, replicate 1":21.6,"cell count, replicate 1":5173,"Outcome":"inactive"}
